This experiment deals with Histoplasma capsulatum.
With “1-[(1R,2R)-2-(2,4-Difluorophenyl)-2-hydroxy-1-methyl-3-(1H-1,2,4-triazol-1-yl)propyl]-3-[4-(2,2,3,3-tetrafluoropropoxy)phenyl]-2-(1H,3H)-thioimidazolone”, the MIC (usually the lowest concentration that inhibits growth of the organism) was 0.25 µg/mL.

As to “1-[(1R,2R)-2-(2,4-Difluorophenyl)-2-hydroxy-1-methyl-3-(1H-1,2,4-triazol-1-yl)propyl]-3-[4-(1H-1-tetrazolyl)phenyl]-2-(1H,3H)-thioimidazolone”, the MIC was found to be 0.03 µg/mL.

Turning to “1-[(1R,2R)-2-(2,4-Difluorophenyl)-2-hydroxy-1-methyl-3-(1H-1,2,4-triazol-1-yl)propyl]-3-[4-(2H-2-tetrazolyl)phenyl]-2-(1H,3H)-thioimidazolone”, the MIC is 0.25 µg/mL.

Source of the values: patent US20050131041A1, “Azole derivatives as antifungal agents” (priority 2002, published 2005).
